Anti-infective test results gathered from many reports (values: NIAID ChemDB through PubChem).

MIC50, MIC90 and the like: level of inhibition, or share of isolates inhibited.

smiles	target	method	tested at	read-out	agent	kind	strain or isolate	value
CC(C)Nc1c(Br)cc(Br)c2c1C(=O)c1ccccc1C2=O	-	-	-	MIC	Mycobacterium tuberculosis	culture	H37Rv	>100 µg/mL
CCOC(=O)C1=NN(c2ccccc2)C(=O)C1N=Nc1c(Br)cc(S(N)(=O)=O)cc1Br	-	BACTEC	-	MIC	Mycobacterium tuberculosis	culture	H37Rv	≥12.5 µg/mL
CC1(C)CC2CC(C)(CN2CCNC[C@@H]2CC[C@H]3C[C@@H]2C3(C)C)C1	-	-	-	MIC	Mycobacterium tuberculosis	culture	-	6.25 µM
Cc1ccc(N2CCN(c3cncc(-c4ccccc4)n3)CC2)cc1	UL97 kinase	-	-	IC50	Cytomegalovirus	target	-	<100 µM
O=C(O)C(C(=O)O)C(=O)c1ccccc1	-	-	-	MIC	Mycobacterium tuberculosis	culture	H37Rv	50 µg/mL
COc1ccccc1CCNCCNCc1ccccc1F	-	-	-	MIC	Mycobacterium tuberculosis	culture	-	50 µM
Cc1cncc(O)c1	-	-	-	MIC	Mycobacterium tuberculosis	culture	H37Rv	>100 µg/mL
Cc1cc(C)cc(-c2cncc(N3CCN(c4ccc(F)cc4F)CC3)n2)c1	UL97 kinase	-	10 µM	inhibition	Cytomegalovirus	target	-	>15%
CC(=O)Oc1c(C)cccc1C(=O)O	-	-	-	MIC	Mycobacterium tuberculosis	culture	H37Rv	>100 µg/mL
Cn1c(=O)nc2n(-c3cccc(Br)c3)c3ccccc3nc-2c1=O	-	BACTEC	-	MIC bound	Mycobacterium tuberculosis	culture	H37Rv	>12.5 µg/mL
CCCNCCNC[C@H](C)O	-	-	-	MIC	Mycobacterium tuberculosis	culture	-	50 µM
N#CCC(=O)c1cc2ccccc2cc1S(=O)(=O)Nc1ccc2cn[nH]c2c1	-	-	-	MIC	Mycobacterium tuberculosis	culture	H37Rv	25 µg/mL
FC(F)(F)c1cccc(-c2cncc(N3CCN(c4ccncc4)CC3)n2)c1	UL97 kinase	-	-	IC50	Cytomegalovirus	target	-	<1 µM
Cc1ccc(NP2(N3CC3)=NP(Nc3ccc(C)cc3)(N3CC3)=NP(N3CC3)(N3CC3)=N2)cc1	-	BACTEC	-	MIC	Mycobacterium tuberculosis	culture	H37Rv	128 µg/mL
CC(=O)c1ccccc1-c1cncc(N2CCN(c3ccc(F)cc3F)CC2)n1	UL97 kinase	-	1 µM	inhibition	Cytomegalovirus	target	-	<50%
O=C(CN1CCN(c2ccccc2)CC1)N1CCc2c([nH]c3ccccc23)C1c1cccnc1	-	resazurin	6.25 µg/mL	inhibition	Mycobacterium tuberculosis	culture	H37Rv	14%
OC1(C#CC2(O)CCCCC2)CCCCC1	-	-	-	MIC	Mycobacterium tuberculosis	culture	H37Rv	50 µg/mL
O=C(CNC(=O)NCc1ccco1)NNC(=O)Nc1ccc(F)c(Cl)c1	-	BACTEC	-	MIC bound	Mycobacterium tuberculosis	culture	H37Rv	>12.5 µg/mL
Cc1ccc(-c2cncc(N3CCN(c4cccc(C(F)(F)F)c4)CC3)n2)cc1	UL97 kinase	-	10 µM	inhibition	Cytomegalovirus	target	-	>15%
O=[N+]([O-])c1ccc(CSSCc2ccc([N+](=O)[O-])cc2)cc1	-	-	-	MIC	Mycobacterium tuberculosis	culture	H37Rv	>100 µg/mL
COc1c2c(cc3c1-c1c(cc4c(c1OC)OCO4)CC(C)C(C)C3)OCO2	-	BACTEC	-	MIC	Mycobacterium tuberculosis	culture	H37Rv	≥12.5 µg/mL
NC(C(=O)[O-])(c1ccccc1)c1ccccc1.[Na+]	-	-	-	MIC	Mycobacterium tuberculosis	culture	H37Rv	>100 µg/mL
C=CCN(CCNC/C=C(\C)CC=C(C)C)C1CCCC1	-	-	-	MIC	Mycobacterium tuberculosis	culture	-	12.5 µM
CCC1CN2CCc3cc(OC)c(OC)cc3C2C(C2(O)C(=O)Nc3ccccc32)C1=O	-	BACTEC	12.5 µg/mL	inhibition	Mycobacterium tuberculosis	culture	H37Rv	0%
C=CCNc1nc(N)nc(Nc2ccccc2)n1	-	-	-	MIC	Mycobacterium tuberculosis	culture	H37Rv	100 µg/mL
C[C@H](NCCNCCC(c1ccccc1)c1ccccc1)C1CCCCC1	-	-	-	MIC	Mycobacterium tuberculosis	culture	-	6.25 µM
CCC(C(=O)O)c1ccc(N)cc1	-	-	-	MIC	Mycobacterium tuberculosis	culture	H37Rv	>100 µg/mL
Fc1cccc(-c2cncc(N3CCN(c4ccccc4F)CC3)n2)c1	UL97 kinase	-	10 µM	inhibition	Cytomegalovirus	target	-	>15%
C1=C(CCNCCNCCCc2ccccc2)CCCC1	-	-	-	MIC	Mycobacterium tuberculosis	culture	-	12.5 µM
COc1ccc(/C=C2\N=C(c3ccc(N)cc3)OC2=O)cc1OC	-	BACTEC	12.5 µg/mL	inhibition	Mycobacterium tuberculosis	culture	H37Rv	81%
c1ccc(CNCCNCc2ccco2)cc1	-	-	-	MIC	Mycobacterium tuberculosis	culture	-	50 µM
COc1ccc2c(c1)SC1=NNC(=O)CN12	-	resazurin	6.25 µg/mL	inhibition	Mycobacterium tuberculosis	culture	H37Rv	-7%
CCCCCCCCCCCCCCCCCCNCCNC1CCC1	-	-	-	MIC	Mycobacterium tuberculosis	culture	-	50 µM
NCCNC(=S)S	-	BACTEC	-	MIC bound	Mycobacterium tuberculosis	culture	H37Rv	≤128 µg/mL
CCOC(COc1ccccc1)OCC	-	-	-	MIC	Mycobacterium tuberculosis	culture	H37Rv	>100 µg/mL
CCC(CC)C(=O)NC(=O)NC(=O)N1CC(C)OC(C)C1	-	BACTEC	-	MIC bound	Mycobacterium tuberculosis	culture	H37Rv	>12.5 µg/mL
S=c1nn[nH]n1-c1cc(Cl)ccc1Cl	-	-	-	MIC	Mycobacterium tuberculosis	culture	H37Rv	>100 µg/mL
CC(=O)c1ccc(-c2cncc(N3CCN(c4cccc(C)c4C)CC3)n2)cc1	UL97 kinase	-	10 µM	inhibition	Cytomegalovirus	target	-	>15%
[Cl-].c1ccc(-c2ccccc2OCCOCC[n+]2ccccc2)cc1	-	-	-	MIC	Mycobacterium tuberculosis	culture	H37Rv	>100 µg/mL
Cc1c[n+](=O)c(C)cn1[O-]	-	BACTEC	-	MIC	Mycobacterium tuberculosis	culture	H37Rv	≥12.5 µg/mL
CS(=O)(=O)c1ccc(C(=O)SSC(=O)c2ccc(S(C)(=O)=O)cc2)cc1	-	-	-	MIC	Mycobacterium tuberculosis	culture	H37Rv	>100 µg/mL
Fc1ccc(N2CCCCC2)c(NC(=S)c2ccncc2)c1	EphB3	kinase activity	10 µM	inhibition	-	host protein	-	9%
NNC(=O)CNc1ccc(F)c(Cl)c1	-	BACTEC	12.5 µg/mL	inhibition	Mycobacterium tuberculosis	culture	H37Rv	63%
O=C1NC(=O)c2ccccc21	-	-	-	MIC	Mycobacterium tuberculosis	culture	H37Rv	>100 µg/mL
COc1cc2c3c(c1OC)Oc1ccc(cc1)CC1c4c(cc(OC)c(OC)c4Oc4ccc(cc4)CC3N(C)CC2)CCN1C	-	BACTEC	12.5 µg/mL	inhibition	Mycobacterium tuberculosis	culture	H37Rv	15%
C=CCc1ccc(OC)c(OC)c1	-	turbidity	-	MIC90	Candida albicans	culture	2779	340 µg/mL
CCCCNc1cccc2c1C(=O)c1cccc(NCCCC)c1C2=O	-	-	-	MIC	Mycobacterium tuberculosis	culture	H37Rv	>100 µg/mL
CCCCC(=O)N/N=C/c1ccc(N(C)C)cc1Cl	-	BACTEC	12.5 µg/mL	inhibition	Mycobacterium tuberculosis	culture	H37Rv	66%
O=c1cc(CCl)c2cccc(Cl)c2[nH]1	-	-	-	MIC	Mycobacterium tuberculosis	culture	H37Rv	100 µg/mL
CN(Cc1ccc(Cl)cc1)C(=S)SCc1cccs1	-	BACTEC	128 µg/mL	inhibition	Mycobacterium tuberculosis	culture	H37Rv	96%
CC(=O)c1ccc(N2CCN(c3cncc(-c4ccoc4)n3)CC2)cc1	UL97 kinase	-	1 µM	inhibition	Cytomegalovirus	target	-	<50%
COc1c2c(c3c(c1CCC(=O)O)OC(C)(C)C=C3)OC(C)(C)C=C2	-	BACTEC	-	MIC	Mycobacterium tuberculosis	culture	H37Rv	≥12.5 µg/mL
Nc1ccc2nc(-c3ccccc3)c(-c3ccccc3)nc2c1	-	-	-	MIC	Mycobacterium tuberculosis	culture	H37Rv	100 µg/mL
COc1ccc(/C=N/NC(=O)CNC(=O)n2ccnc2)cc1	-	BACTEC	12.5 µg/mL	inhibition	Mycobacterium tuberculosis	culture	H37Rv	-7%
CC(CNCCNCCC1=CCCCC1)c1ccccc1	-	-	-	MIC	Mycobacterium tuberculosis	culture	-	50 µM
Cc1cc(=O)n2c3c(c4c(cc13)c(CN(C)C)cc(=O)n4C)OC2.Cl	-	BACTEC	12.5 µg/mL	inhibition	Mycobacterium tuberculosis	culture	H37Rv	54%
Nc1cc(=O)[nH]n1-c1ccccn1	-	-	-	MIC	Mycobacterium tuberculosis	culture	H37Rv	>100 µg/mL

5 of the rows above, restated:

smiles | target | method | tested at | read-out | agent | kind | strain or isolate | value
COc1ccc2c(c1)SC1=NNC(=O)CN12 | - | resazurin | 6.25 µg/mL | inhibition | Mycobacterium tuberculosis | culture | H37Rv | -7%
Fc1cccc(-c2cncc(N3CCN(c4ccccc4F)CC3)n2)c1 | UL97 kinase | - | 10 µM | inhibition | Cytomegalovirus | target | - | >15%
Nc1ccc2nc(-c3ccccc3)c(-c3ccccc3)nc2c1 | - | - | - | MIC | Mycobacterium tuberculosis | culture | H37Rv | 100 µg/mL
CC(=O)c1ccccc1-c1cncc(N2CCN(c3ccc(F)cc3F)CC2)n1 | UL97 kinase | - | 1 µM | inhibition | Cytomegalovirus | target | - | <50%
O=c1cc(CCl)c2cccc(Cl)c2[nH]1 | - | - | - | MIC | Mycobacterium tuberculosis | culture | H37Rv | 100 µg/mL

Percent inhibition refers to the dose given; in toxicity tests it is the harm to the cells. ICn is the concentration giving n% inhibition. An empty or dashed field is not shown. Neighbouring rows are from separate reports. MIC bound: limit read from a one-dose screen.